## PSTVd loop 15 mutant pool in Nicotiana benthamiana

PSTVd intermediate strain, loop 15: wild type GGAAACCGCUACUAC, pool pattern GGAAACCGNNNNNNC; upper and lower strand joined, each 5' to 3', the first 7 letters being the upper strand, closing pairs included.

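A pool of all variants was put on leaves of three Nicotiana benthamiana plants. Samples came from the inoculated region at 5 days, the leaf margin at 10 and upper systemic leaves at 12.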

Numbers give reads per thousand; 0 = not seen among the reads, higher = more abundant. Each value is the mean of three plants. "Pool" is the share in the plasmid pool used as inoculum, on the same scale. The inoculated region was read from the minus strand, the other sites from the plus strand.

sequence | pool | inoculated region | leaf margin | systemic leaves
GGAAACCGAAAAUCC | 0.240 | 0.100 | 0.0108 | 0
GGAAACCGAAAUGAC | 0.192 | 0.0840 | 0.0121 | 0.00537
GGAAACCGAACCGAC | 0.192 | 0.0839 | 0 | 0
GGAAACCGACCUGUC | 0.192 | 0.0915 | 0 | 0
GGAAACCGAGAAUGC | 0.288 | 0.385 | 0.148 | 0.00537
GGAAACCGAGCUGAC | 0.128 | 0.249 | 0.0208 | 0
GGAAACCGAGCUUGC | 0.176 | 0.113 | 0.0108 | 0.00537
GGAAACCGAUCAAUC | 0.272 | 0.272 | 0.0121 | 0.00537
GGAAACCGAUGGCUC | 0.192 | 0.0850 | 0.00539 | 0
GGAAACCGAUUAUUC | 0.240 | 0.421 | 0.0993 | 0.0158
GGAAACCGCAUCAAC | 0.176 | 0.0732 | 0.00539 | 0
GGAAACCGCAUCGCC | 0.320 | 0.133 | 0.0134 | 0
GGAAACCGCAUUGUC | 0.256 | 0.0892 | 0 | 0
GGAAACCGCCGCAAC | 0.256 | 0.0741 | 0.0148 | 0.00537
GGAAACCGCCGUAUC | 0.208 | 0.511 | 0.0195 | 0.00537
GGAAACCGCGAAAUC | 0.224 | 0.0922 | 0.00668 | 0
GGAAACCGCGUAUCC | 0.384 | 0.135 | 0 | 0
GGAAACCGCUCGCGC | 0.304 | 0.0945 | 0.0175 | 0
GGAAACCGCUUCGCC | 0.272 | 0.109 | 0.0108 | 0
GGAAACCGGAGAGAC | 0.112 | 0.0858 | 0.0336 | 0.00760
GGAAACCGGCCCGUC | 0.128 | 0.148 | 0 | 0
GGAAACCGGCUCCGC | 0.256 | 0.0894 | 0 | 0
GGAAACCGGGAGGGC | 0.192 | 0.0752 | 0.0108 | 0
GGAAACCGGGCGAAC | 0.240 | 0.0787 | 0.0202 | 0.00760
GGAAACCGGGCGAGC | 0.208 | 0.0849 | 0.00668 | 0
GGAAACCGGGGAGAC | 0.128 | 0.0523 | 0.00668 | 0
GGAAACCGGGUGGUC | 0.304 | 0.121 | 0.0134 | 0.00537
GGAAACCGGUAUCCC | 0.304 | 0.0931 | 0.00539 | 0
GGAAACCGGUCUUGC | 0.304 | 0.0777 | 0.00668 | 0
GGAAACCGGUGUCCC | 0.288 | 0.0731 | 0.0195 | 0
GGAAACCGUAAACUC | 0.160 | 0.117 | 0.0121 | 0.00537
GGAAACCGUAACUGC | 0.240 | 0.531 | 0.116 | 0.104
GGAAACCGUACCGCC | 0.208 | 0.0786 | 0 | 0.00537
GGAAACCGUAGUAUC | 0.240 | 0.130 | 0.0121 | 0
GGAAACCGUCGUGUC | 0.0960 | 0.165 | 0.00668 | 0

Wild type was 33.9 per thousand in the pool and the most common sequence in every sample (inoculated region 202, 200, 159; leaf margin 724, 746, 710; systemic leaves 856, 883, 880). Sequences that differ at fixed positions probably stem from PCR or sequencing errors, and defective variants can be carried along by functional ones. Samples held 43,870 to 66,106 reads, so the smallest values rest on one or two reads.

Source: Wu et al. 2024 (doi:10.1371/journal.ppat.1012142), supplementary data.